# Data as given in PubChem BioAssay AID624099 (ICCB-Longwood, 2012).
# Screen: 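Host factors E2 relies on to silence an HPV18 LCR reporter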 (primary screen)
# Cells: human C33A cervical carcinoma cells (HPV-negative) stably expressing BPV1 E2 and an HPV18 LCR luciferase reporter
# Reagents: siRNA pool against human genes, 40 nM
# Duration: 72 h
# Read-out: 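HPV18 LCR reporter light per well, converted to plate-wise z-scores that exclude control wells, and averaged over triplicate plates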
# Scale: mean z-score and z-score: higher = stronger reporter signal, weaker E2 silencing
# Rule for the call: 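Mean z ≥ 2 together with z ≥ 2 in two or more of the three replicates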
# Shown is a random part of about 21,000 reagents. Over the whole deposit, 497 (2.4%) got an active call. 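Higher z means weaker E2 silencing; only reporter increases were scored, and knock-downs that hurt cell survival may mask genuine repressor factors.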 The numbers tell different reagents against one gene apart.
gene,reagent no.,mean z-score,"z-score, replicate A","z-score, replicate B","z-score, replicate C",Call
SSR1,1,-0.23,-0.28,-0.25,-0.16,inactive
ANP32A,1,-1.31,-1.46,-1.28,-1.21,inactive
OR6C68,1,0.3,0.26,0.59,0.06,inactive
CCDC27,1,0.52,-0.23,0.99,0.8,inactive
DNAJB1,1,3.29,2.99,3.56,3.32,active
KLF7,1,-0.19,-0.32,0.1,-0.34,inactive
TYR,1,-1.33,-1.78,-0.99,-1.23,inactive
OR1F2P,1,-1.13,-1.25,-1.2,-0.95,inactive
SMPD2,1,0.33,0.37,0.39,0.24,inactive
LOC388887 (retired record),1,-0.1,-0.09,-0.13,-0.09,inactive
TSPAN14,1,-0.69,-0.75,-0.78,-0.54,inactive
SLC20A1,1,-0.16,-0.15,-0.3,-0.03,inactive
HDGFL3,1,0.04,0.32,0.05,-0.26,inactive
VWA5A,1,0.48,0.67,0.45,0.31,inactive
LINC02764,1,-1.31,-1.34,-1.5,-1.1,inactive
TMEM70,1,0.68,0.84,0.89,0.31,inactive
CHST12,1,0.99,1.03,1.2,0.73,inactive
LOC728148 (retired record),1,-0.72,-0.6,-0.81,-0.74,inactive
NKTR,1,0.58,0.43,0.52,0.8,inactive
CFAP95,1,-0.2,0.12,-0.35,-0.36,inactive
LOC729897 (retired record),1,-0.38,-0.08,-1.09,0.04,inactive
EFL1,1,-0.46,0.13,-0.45,-1.05,inactive
LHX9,1,0.64,0.86,0.26,0.82,inactive
MTHFD1L,1,1.09,0.93,1.37,0.97,inactive
AXL,1,0.12,0.33,0,0.02,inactive
TROAP,1,3.14,3.39,2.96,3.08,active
STAG3L1,1,0.2,0.3,0.32,-0.01,inactive
LOC391542 (retired record),1,-1.47,-1.2,-1.89,-1.32,inactive
BASP1-AS1,1,0.3,0.48,-0.05,0.46,inactive
SETDB1,1,-0.15,0.12,-0.18,-0.39,inactive
ZNF776,1,-0.49,-0.6,-0.37,-0.52,inactive
FGF9,1,0.41,0.33,0.58,0.32,inactive
CAND2,1,0.31,0.44,0.16,0.34,inactive
IFITM5,1,0.44,0.69,-0.1,0.74,inactive
DUSP5,1,-0.56,-0.34,-0.42,-0.91,inactive
KMT5B,1,0.06,0.16,-0.51,0.52,inactive
GLUD1,1,1.95,1.73,2.02,2.11,inactive
WFIKKN2,1,-1.07,-1.39,-1.2,-0.63,inactive
ARHGAP27,1,0.24,0.11,0.15,0.47,inactive
ARHGAP27,2,0.54,0.61,0.49,0.52,inactive
PDX1,1,-1.25,-1.14,-1.36,-1.27,inactive
CLEC17A,1,-0.23,-0.21,-0.37,-0.13,inactive
SLC25A39,1,-0.34,-0.25,-0.35,-0.41,inactive
INSL6,1,0.05,-0.09,0.11,0.12,inactive
HDGFL2,1,-0.28,-0.12,-0.33,-0.39,inactive
GARIN4,1,-0.35,-0.48,-0.12,-0.45,inactive
LOC728743,1,-0.13,-0.09,-0.28,-0.03,inactive
DDX41,1,-0.33,-0.15,-0.59,-0.24,inactive
MAP2K6,1,-1.08,-1.29,-1.03,-0.93,inactive
ZKSCAN7,1,0.34,0.03,0.4,0.59,inactive
CRYBG3,1,0.57,0.11,0.77,0.84,inactive
KHDC4,1,-1.1,-1.25,-1.11,-0.93,inactive
LOC387883 (retired record),1,0,0.02,0,-0.03,inactive
IMMP2L,1,0.08,0.1,-0.08,0.22,inactive
HEATR6,1,0.17,0.22,0.15,0.14,inactive
SYT5,1,0.45,0.52,0.35,0.49,inactive
PPIC,1,-1,-0.91,-1.12,-0.98,inactive
